Anti-infective test results gathered from many reports (values: NIAID ChemDB through PubChem).

Common to all: whole-cell or culture tests; organism: HIV-1; endpoint: fold resistance

An empty or dashed field is not shown. Rows are shuffled and stem from different studies. Fold resistance: result on the changed form divided by that on wild type.

structure	cells	read by	mutations	strain or isolate	value
CC1=C(C(=S)Nc2ccc(Cl)c(/C=N/OC(C)(C)C)c2)CCO1	CEM	syncytia	RT-L100I	IIIB	10
CCCCOC(=O)c1cc(NC(=O)C2=C(C)OCCS2)ccc1Cl	CEM	syncytia	RT-E138K	TSAO-resistant (RT E138K)	87.5
CCc1c(Cc2cccc3ccccc23)nc(SCC(=O)c2ccc(C)cc2)[nH]c1=O	MT-4	cytopathic effect	RT-K103N Y181C	SO561945	≥17.6
Cc1cc(C)c(CS(=O)c2cccc[n+]2[O-])c(C)c1	CEM	cytopathic effect	RT-K103N		4.58
CCOC(=O)CSc1nc(Cc2cccc3ccccc23)c(C)c(=O)[nH]1	MT-4	cytopathic effect	RT-K103N Y181C	SO561945	≥45.3
CCCc1c(Cc2cc(C)cc(C)c2)n(COCC2CC=CCC2)c(=O)[nH]c1=O	MT-4	cytopathic effect / MTT	RT-Y181C	NNRTI-resistant (RT Y181C) N119	>1250
O=C1Nc2ccc(F)cc2C(C#Cc2ccco2)(C(F)(F)F)O1			RT-K103N		126
O=C1Nc2ccc(F)c(F)c2[C@@](C#CC2CC2)(C(F)(F)F)N1			RT-G190S		58.9
O=C1Nc2ccc(Cl)cc2C(C#Cc2ccsc2)(C(F)(F)F)O1			RT-K103N		48.1
N#Cc1cc2[nH]c3ccccc3c2n(-c2ccc([N+](=O)[O-])cc2)c1=O	MT-4	cytopathic effect / MTT	RT-K101E K103N	I	3
CCOC(=O)c1cc(NC(=S)c2ccoc2C)ccc1C	CEM	syncytia	RT-Y181C	IIIB	6.67
Cc1cc(C#N)cc(C)c1Oc1nc(Nc2ccc(C#N)cc2)ncc1SCC(=O)NC1CCN(C(=O)OC(C)(C)C)CC1	MT-4	MTT	Y188L		22
Cn1c2ccccc2c2c1cc(C#N)c(=O)n2-c1ccc([N+](=O)[O-])cc1	MT-4	cytopathic effect / MTT	RT-V106A F227L	G	3
O=C1Nc2ccc(Cl)cc2C(OCCC2CC2)(C(F)(F)F)O1			RT-K103N		54.5
N#C[C@]1(CO)O[C@@H](n2cnc3c(N)ncnc32)C[C@@H]1O	MAGI	β-galactosidase	RT-M184V	3TC-resistant (RT M184V)	53
Cc1ccccc1S(=O)(=O)c1c(C(N)=O)[nH]c2ccc(Cl)cc12	MT-4	cytopathic effect / MTT	RT-Y181C	N119 nevirapine-resistant (RT Y181C)	160
Nc1nc(NC2CC2)c2ncn([C@H]3CO[C@@H](CO)O3)c2n1	MT-2	RT activity	RT-K65R	HXB2(RT-K65R) Recombinant	1.9
Cc1cc(S(N)(=O)=O)ccc1NC(=O)COc1ccc(Cl)cc1C(=O)c1cccc(C#N)c1	HeLa + HELA CD4+	β-galactosidase	RT-V108I	HXB2	~1
Cc1cc(C#N)cc(C)c1Oc1nc(Nc2ccc(C#N)cc2)ncc1SCC(=O)NCc1ccc(O)cc1	MT-4	MTT	Y188L		12.3
CCCc1c(Cc2ccccc2)n(COC/C(C)=C/c2ccccc2)c(=O)[nH]c1=O	MT-4	cytopathic effect / MTT	RT-Y181C	NNRTI-resistant (RT Y181C) N119	>2500
Cc1cc(C#N)cc(C)c1Oc1nc(Nc2ccc(C#N)cc2)ncc1SCC(=O)NCCN1CCOCC1	MT-4	MTT	F227L V106A		35.8
O=C1Nc2ccc(F)cc2C(C#Cc2cccs2)(C(F)(F)F)O1			RT-K103N		28.5
CCCc1c(Cc2cc(C)cc(C)c2)n(COC/C=C/c2ccccc2)c(=O)[nH]c1=O	MT-4	cytopathic effect / MTT	RT-Y181C	NNRTI-resistant (RT Y181C) N119	100
FC(F)(Sc1ncccn1)c1nc2ccccc2o1			RT-D67N K70R T215Y K219Q	4xAZT(RT-D67N K70R T215Y K219Q)	0.111
Cc1cc(C#N)cc(C)c1Oc1nc(Nc2ccc(C#N)cc2)ncc1SCC(=O)NC1CC1	MT-4	MTT	K103N		0.9
COC(=O)Nc1nc2ccc(S(=O)(=O)N(CC(C)C)C[C@@H](O)[C@H](Cc3ccccc3)NC(=O)OC3COC4OCCC34)cc2[nH]1	MT-4	cytopathic effect / MTT	PR-L10F M46I M71V I84V	R13080	1.3
COc1ccnc2[nH]cc(C(=O)C(=O)N3CCN(C(=O)c4ccccc4)C[C@H]3C)c12	MT-2	RT activity	GP120-V68A	LAI(GP120-V68A) Recombinant	<4
Cc1c(OCC2CCC2)c2cc(F)ccc2[nH]c1=O	HeLa + HeLa-MAGI	β-galactosidase	RT-V106A Y181C	NNRTI-resistant (RT V106A Y181C)	>3.28
CNc1ncnc2c1ncn2[C@@H]1O[C@H](CO)C[C@@H]1F	MT-2	RT activity	RT-K65R	IIIB BCH-13520-resistant (RT K65R)	15
O=C(O[C@@H]1[C@H](OC(=O)c2ccccc2)[C@@H](CO)O[C@H]1n1cnc2c(N(C(=O)c3ccccc3)C(=O)c3ccccc3)ncnc21)c1ccccc1	HeLaP4	β-galactosidase	G140S-Q184H	NL4-3	0.99
Cc1ccc(S(=O)(=O)c2c(C(N)=O)[nH]c3ccc(Cl)cc23)c(C)c1	MT-4	cytopathic effect / MTT	RT-K103N Y181C	A17	2500
O=C(Nc1ccc(Cl)c(C(=O)OC2CCCCC2)c1)c1ccccc1F	CEM	syncytia	RT-V106A	IIIB	3.33
CCOC(=O)c1cc(NC(=O)C2=C(C)OCCS2)ccc1Cl	CEM	syncytia	RT-Y181C	PYR-resistant (RT Y181C)	>100
CCCc1cc(=O)oc2c3c(c4c(c12)OC(C)(C)CC4)O[C@H](C)[C@@H](C)C3=O		cytopathic effect / XTT	RT-Y181C		<6
CCc1cc(C#N)cc(C(=O)c2cc(Cl)ccc2OCC(=O)Nc2ccc(S(N)(=O)=O)cc2C)c1	HeLa + HELA CD4+	β-galactosidase	RT-K103N Y181C	HXB2 (RT-K103N Y181C) Recombinant	~1
Cc1sccc1C(=S)Nc1ccc(Cl)c(OCC=C(Cl)Cl)c1	CEM	syncytia	RT-K103N	TIBO R82913-resistant (RT K103N)	57.1
CCOC(=O)c1cc(NC(=O)C2=C(CC)OCCS2)ccc1Cl	CEM	syncytia	RT-Y181C	PYR-resistant (RT Y181C)	100
Nc1ncnc2c1ncn2[C@@H]1O[C@H](CO)C=C1F	MT-2		K65R		2.2
Cc1cc(Cl)cc(C(=O)c2cc(Cl)ccc2OCC(=O)Nc2ccc(S(N)(=O)=O)cc2C)c1	HeLa + HELA CD4+	β-galactosidase	RT-V106I	HXB2	~0.1
CC(C)=CCN1CC(C)Cn2c(=S)[nH]c3cccc1c32	CEM(SS) + CEM-SS	cytopathic effect / XTT	RT-Y181C	N119(RT-Y181C)	>54.4
O=C1Nc2ccc(Cl)cc2C(C#Cc2cncs2)(C(F)(F)F)O1			RT-K103N		128
CC1=C(C(=O)Nc2ccc(F)c(C(=O)OC(C)C)c2)SCCO1	CEM	syncytia	RT-L100I	TIBO-resistant (RT L100I)	>28.6
O=C1Nc2ccc(F)c(F)c2C(C#Cc2ccccn2)(C(F)(F)F)O1			RT-K103N		15.6
CCCC1=C(C(=O)Nc2ccc(Cl)c(C(=O)OC)c2)SCCO1	CEM	syncytia	RT-V106A	Nevirapine-resistant (RT V106A)	>13.3
C=C(C)[C@@H]1CC[C@]2(C(=O)NCCCCCCCC(=O)N[C@@H](CC(C)C)[C@@H](O)CC(=O)O)CC[C@]3(C)[C@H](CC[C@@H]4[C@@]5(C)CC[C@H](O)C(C)(C)[C@@H]5CC[C@]43C)[C@@H]12	HeLa P4 + HeLa	syncytia	R22A	LAI-R(GP41-R22A)	1
O=C1Nc2ccc(Cl)cc2C(C#Cc2ccccn2)(C(F)(F)F)O1			RT-K103N		301
CCN1c2nc(C(F)(F)F)ccc2NC(=O)c2cc(CCOc3cc[n+]([O-])c4ccccc34)cnc21	C8166	p24	RT-V106A		51.9
O=C1Nc2ccc(F)c(F)c2[C@@](/C=C/C2CC2)(C(F)(F)F)N1			RT-P225H		<6.32
CCOCn1c(Cc2ccccc2)c(C(C)C)c(=O)[nH]c1=O	MT-4	cytopathic effect / MTT	RT-K103N Y181C	NNRTI-resistant (RT K103N Y181C) A17	>5000
COCCNC(=O)CSc1cnc(Nc2ccc(C#N)cc2)nc1Oc1c(C)cc(C#N)cc1C	MT-4	MTT	Y181C		5.1
COc1ccc(NC(=S)C2=C(C)OCCS2)cc1OCC=C(Cl)Cl	CEM	syncytia	RT-V106A	Nevirapine-resistant isolate (RT V106A)	7.41
Cc1ccc(C)c(CSc2c(Cl)ccc[n+]2[O-])c1	CEM	cytopathic effect	RT-Y181C		≥400
Cc1cc(C)cc(S(=O)(=O)c2c(C(N)=O)[nH]c3ccc(Cl)cc23)c1	C8166	cytopathic effect / MTT	RT-K103R V179D P225H	Efavirenz-resistant (RT K103R V179D P225H)	40
COc1ccc(NC(=S)c2ccsc2C)cc1OCC=C(Cl)Cl	CEM	syncytia	RT-Y181C	Pyridone-resistant (RT Y181C)	26
CC(C)[C@H](NC(=O)OCc1ccccn1)C(=O)N[C@@H](Cc1ccccc1)[C@@H](O)C[C@H](Cc1ccccc1)NC(=O)OCc1cccnc1	MT-4	p24	PR-L10R M46I L63P 184V	NL4-3	1.875
CCCc1c(Cc2ccccc2)n(COC/C=C/c2ccccc2)c(=O)[nH]c1=O	MT-4	cytopathic effect / MTT	RT-Y181C	NNRTI-resistant (RT Y181C) N119	>10000
C=CCNC(=O)CSc1cnc(Nc2ccc(C#N)cc2)nc1Oc1c(C)cc(C#N)cc1C	MT-4	MTT	Y181C		6.8
COc1ccc(NC(=O)C2=C(C)OCCS2)cc1OCC=C(Cl)Cl	CEM	syncytia	RT-V106A	Nevirapine-resistant isolate (RT V106A)	2.5
Cc1cc(C#N)cc(C)c1Oc1nc(Nc2ccc(C#N)cc2)ncc1SCC(=O)Nc1ccc(S(C)(=O)=O)cc1	MT-4	MTT	Y188L		32.4
CN1CCN(C(=O)c2ccc3c(=O)c4ccccc4[nH]c3c2)CC1	CEM	syncytia	RT-V106A	Nevirapine-resistant (RT V106A)	92.9
Cc1ccc(C)c(CS(=O)(=O)c2cccc[n+]2[O-])c1	CEM	cytopathic effect	RT-Y181C		3.77
CCCCCCCCCCCCCCCC(=O)Nc1ccn([C@H]2CC[C@@H](COP(=O)(O)OC[C@H]3O[C@@H](n4cc(C)c(=O)[nH]c4=O)C[C@@H]3N=[N+]=[N-])O2)c(=O)n1	CEM + CEM-SS	cytopathic effect / XTT	RT-M41L D67N K70R T215Y	D148/89 (AZT-resistant RT M41L D67N K70R T215Y)	0.3
CCC1=C(C(=O)Nc2ccc(Cl)c(C(=O)OC(C)C)c2)SCCO1	CEM	syncytia	RT-V106A	Nevirapine-resistant (RT V106A)	150
Cc1cc(S(N)(=O)=O)ccc1NC(=O)COc1ccc(Cl)cc1C(=O)c1cc(F)cc(C#N)c1	HeLa + HELA CD4+	β-galactosidase	RT-P225H	HXB2	~1
Nc1nc2c(ncn2[C@H]2CO[C@@H](CO)O2)c(=O)[nH]1	MT-2	cytopathic effect / XTT	RT-K65R		2.5
Nc1ncnc2c1ncn2[C@@H]1O[C@H](CO)[C@H]1CO	MT-2	RT activity	RT-V75I	HXB2(RT-V75I) Recombinant	4.86
O=C1Nc2ccc(Cl)cc2C(C#Cc2ccncc2)(C(F)(F)F)O1			RT-K103N		40.1
Cc1cn([C@H]2C=C[C@@H](CO)O2)c(=O)[nH]c1=O	MT-4	cytopathic effect / MTT	RT-K65R/T215Y	HXB2	0.9
C/C(Cl)=C/COc1cc(NC(=S)c2ccoc2C)ccc1Cl	CEM	syncytia	RT-Y188H	HEPT-resistant (RT Y188H)	300
C[C@@H]1CCO[C@H]2Cn3cc(C(=O)NCc4ccc(F)cc4F)c(=O)c(O)c3C(=O)N12	CBMC	RT activity	E138K/R263K	NL4-3	2.4
Cc1cc(C#N)cc(C)c1Oc1nc(Nc2ccc(C#N)cc2)ncc1SCC(N)=O	MT-4	MTT	RES056		64.4
CCCCCOC(=O)c1cc(NC(=O)C2=C(C)OCCS2)ccc1Cl	CEM	syncytia	RT-Y181C	PYR-resistant (RT Y181C)	1

For reference, 4 entries again:

structure	cells	read by	mutations	strain or isolate	value
CC(C)[C@H](NC(=O)OCc1ccccn1)C(=O)N[C@@H](Cc1ccccc1)[C@@H](O)C[C@H](Cc1ccccc1)NC(=O)OCc1cccnc1	MT-4	p24	PR-L10R M46I L63P 184V	NL4-3	1.875
FC(F)(Sc1ncccn1)c1nc2ccccc2o1			RT-D67N K70R T215Y K219Q	4xAZT(RT-D67N K70R T215Y K219Q)	0.111
Cc1cc(C#N)cc(C)c1Oc1nc(Nc2ccc(C#N)cc2)ncc1SCC(=O)NCc1ccc(O)cc1	MT-4	MTT	Y188L		12.3
O=C1Nc2ccc(Cl)cc2C(C#Cc2ccccn2)(C(F)(F)F)O1			RT-K103N		301